Results: article PMC5112231
Construct, isoform or probe ends are uncertain for at least one entry. Weaker means in comparison with the reference protein, sequence or condition of that experiment. Tags and fusion partners may be left off the protein sequences shown.

Target: T1, Lrp K36Ac (Salmonella Typhimurium 14028s) (UniProt A0A0F6AZA3)
T1 sequence (looked up): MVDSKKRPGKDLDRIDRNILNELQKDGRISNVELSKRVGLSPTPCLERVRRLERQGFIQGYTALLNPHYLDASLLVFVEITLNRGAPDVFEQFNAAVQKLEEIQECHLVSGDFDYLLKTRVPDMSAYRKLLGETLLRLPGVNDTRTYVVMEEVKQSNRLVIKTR
Assay: EMSA
Conditions: K36 acetylated; EMSA: binding buffer 100 mM Tris-HCl pH 8, 375 mM NaCl, 25 mM MgCl2, 5 mM DTT; about 1 nmol DNA in 20 ul, 25 C, 20 min; recombinant protein; residues 1-164; label: 5'-FAM on both primers (6'-FAM in legends); probe letters rebuilt from the primers and the genome

Sequence: ACACAGTGGAGCAATAATAAAGAATGAGACCTCCCTGTTGACTGGCTATTTTGCGTAAGAGTAATAAATATGTGGAATATCCATTTCGCACCAACAAAAAAGAAATTTCTGATTAAGTAAAAACAATATGGATTATACCTGGTCTGATTTCTCGGAAAAGTCTTGCGAAATGCGAATTATGGATAGCGGGTAGGATATTCTG (double strand) [fimZ promoter]
- binding result: binds more weakly
